# Results from paper PMC9785441, “A Broad Spectrum Antiparasitic Activity of Organotin (IV) Derivatives and Its Untargeted Proteomic Profiling Using Leishmania donovani” (Pathogens, 2022).
# How the values were obtained:
# [1] = system: L. donovani intracellular amastigotes; test: L. donovani intracellular amastigote assay in B10R cells (high content imaging); assay type: cell-based, Leishmania donovani; conditions: ratio between CC50 in B10R cells and EC50 against L. donovani intracellular amastigotes
# Description: For the intracellular amastigote stage assay, L. donovani was incubated at a density of 1 × 10^6 parasites/mL for six days at 29 °C before infection to enrich the proportion of metacyclic promastigotes. B10R monocyte cell lines were cultured in RPMI supplemented with 10% FBS and 1%penicillin/streptomycin at 37 °C in 5% CO2. After 72 h, cells were counted with a hemocytometer and mixed with the six-day-old parasites. Into 384-well assay plates, that had been pre-spotted with compounds diluted 1000-fold in DMSO, with final assay concentrations ranging from 20 µM to 0.02 µM and tested in biological triplicates., 500 B10R cells and 7000 parasites were dispensed per well in a final volume of 50 µL using a Multidrop Combi liquid dispenser (ThermoScientific, Waltham, MA, USA). Plates were incubated at 37 °C and 5% CO2 for 72 h. Cultures were then fixed with 4% formaldehyde solution for 30 min and stained with 0.5 µg/mL DAPI (diamidino-2-phenylindole). Plates were then imaged using an ImageXpress Micro XLS automated high content imager (Molecular Devices, San Jose, CA, USA) using a 10× air objective. A custom image analysis module generated in ImageXpress was used to count the nuclei of host and parasite cells. EC50 values were obtained using the GraphPad Prism 9 Software with biological triplicates.
# [2] = system: T. cruzi (infecting C2C12); test: T. cruzi intracellular amastigote assay in C2C12 cells (high content imaging); assay type: cell-based, Trypanosoma cruzi; conditions: ratio between CC50 in C2C12 cell lines and EC50 against T. cruzi intracellular amastigotes
# Description: Mouse C2C12 myoblasts (ATCC CRL-1772) were cultivated in RPMI 1640 medium supplemented with 5% FBS and kept at 37 °C and 5% CO2. T. cruzi CAI-72 trypomastigotes were obtained from the supernatant of C2C12 cells infected four to seven days previously. For the assay, 500 C2C12 cells were mixed with 7500 T. cruzi parasites and seeded into 384-well plates at a 50 µL final volume. Test compounds and reference drugs (Benznidazole and K11777) were pre-spotted into the 384 well black bottom plates prior to the addition of cells and parasites with final assay concentration of 20 µM to 0.02 µM. The plates were incubated at 37 °C^, 5% CO2 for 72 h. Cultures were then fixed with 4% formaldehyde and 0.5 µg/mL DAPI (diamidino-2-phenylindole) was added for staining nucleic acids. Plates were kept protected from light for 1 h and then imaged in an ImageXpress Micro XLS automated high content imager (Molecular Devices, San Jose, CA, USA). Imaging and data analysis were performed as described for L. donovani amastigotes on biological triplicates.
SMILES,SI^a [1],SI^b [2]
"COc1ccc(NC(=O)CCC(=O)O)cc1 [MS26, 4-(4-methoxyphenylamino)-4 oxobutanoic acid]",2.02,6.23
"COc1ccc(NC(=O)CCC(=O)[O-])cc1.[Na+] [MS26Na, sodium 4-(4-methoxyphenylamino)-4 oxobutanoate]",1.06,0.38
